PubChem BioAssay AID1259414 | Drosophila RNAi Screening Center – 2018
Test: 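Fly genes that alter Wolbachia amount inside host cells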 (primary screen). Cells: Drosophila JW18 cells infected with Wolbachia. Knock-down reagent: long dsRNA against Drosophila genes, 0.25 µg dsRNA per well of a 384-well plate. Timing: 5 days. Challenge: cells persistently infected with Wolbachia before knock-down; no added drug. Measurement: 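Imaged fluorescence in situ signal for Wolbachia 23S rRNA per DAPI-counted host cell, given as a robust z-score within each plate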. Scale: Wolbachia per cell robust z: higher = more Wolbachia per host cell than the plate typical. Hit rule: 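Active if absolute robust z reaches 1.5 in two or more of three replicates, leaving out multi- or no-target dsRNAs, genes unexpressed in JW18 and A1 wells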.
In all, the deposit lists about 24,000 reagents; shown is a random part of those with a known target gene and a result. Over the whole deposit, about 1,210 (5%) are marked active. 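Inactive calls also include excluded dsRNAs with several or no targets, genes unexpressed in JW18, and well A1, regardless of score.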 A number with no mark means an inactive call. Names joined by + are all predicted targets of the reagent. No sequences are given here.

gene knocked down	DRSC id	Wolbachia per cell robust z, rep 1	Wolbachia per cell robust z, rep 2	Wolbachia per cell robust z, rep 3
CG11523 (GeneID 40458)	DRSC11669	-1.47	0.0976	0.809
CG11523 (GeneID 40458)	DRSC26429	0.0022	-0.0351	1.52
E2f1 (GeneID 42550)	DRSC16655	1.78 (active)	0.864	2.12
E2f1 (GeneID 42550)	DRSC29572	-0.041	-0.243	-0.514
Cyp316a1 (GeneID 38840)	DRSC11130	-0.0903	1.13	1.19
Cyp316a1 (GeneID 38840)	DRSC29059	0.955	1.37	0.537
CG14982 (GeneID 38464)	DRSC23022	-0.365	-0.584	0.422
CG2818 (GeneID 33597)	DRSC00540	-0.986	-0.534	0.4
asRNA:CR30267 + CG42260	DRSC29385	0.281	0.716	0.961
CG14391 (GeneID 41567)	DRSC14850	0.533	-0.824	0.0121
CG14391 (GeneID 41567)	DRSC28373	0.605	0.657	0.236
CG11529 (GeneID 39395)	DRSC09839	0.675	-0.383	-4.57
Cks30A (GeneID 34250)	DRSC03292	-9.03	0.821	-0.622
CG30289 (GeneID 246532)	DRSC03870	-1.13	-0.654	-0.168
CG13359 (GeneID 31028)	DRSC18539	-1.43	-1.37	1.4
CG13359 (GeneID 31028)	DRSC26791	-0.459	0.059	-3.17
Gli (GeneID 34927)	DRSC03332	0.772	0.699	1.8
CG31678 (GeneID 35327)	DRSC02618	0.505	0.561	0.667
CG31678 (GeneID 35327)	DRSC02619	-0.195	0.26	-0.222
abo (GeneID 44793)	DRSC02926	-0.692	0.249	-0.624
Vdup1 (GeneID 38023)	DRSC08586	0.17	-1	-0.681
cd (GeneID 42681)	DRSC16157	-0.172	-1.19	0.329
dpr11 (GeneID 40800)	DRSC12561	-2.46	-1.54	0.411
dpr11 (GeneID 40800)	DRSC12562	-0.673	-1.07	1.41
dpr11 (GeneID 40800)	DRSC12563	0.637	0.727	0.711
CG8516 (GeneID 41206)	DRSC16437	-0.365	0.374	-1.24
mRpS18B (GeneID 35299)	DRSC02107	2.04	0.856	0.21
CG13482 (GeneID 39577)	DRSC10024	-0.348	-0.391	-1.64
CG13482 (GeneID 39577)	DRSC23975	0.393	-0.736	0.322
CG13482 (GeneID 39577)	DRSC41290	0	0.315	-0.0265

A portion from the list above, for reference:
gene knocked down	DRSC id	Wolbachia per cell robust z, rep 1	Wolbachia per cell robust z, rep 2	Wolbachia per cell robust z, rep 3
CG11523 (GeneID 40458)	DRSC26429	0.0022	-0.0351	1.52
E2f1 (GeneID 42550)	DRSC16655	1.78 (active)	0.864	2.12
E2f1 (GeneID 42550)	DRSC29572	-0.041	-0.243	-0.514
Cyp316a1 (GeneID 38840)	DRSC11130	-0.0903	1.13	1.19
